Pooled drug test results. Numbers come from NIAID ChemDB, via PubChem.

All rows: growth or infection tests; agent: Mycobacterium tuberculosis

Blank or dashed fields: not listed here. Conditions beyond the fields shown may differ between rows. MIC bound comes from a single tested concentration. Two numbers with a dash give a range or band. Inhibition is in % at the dose shown (toxicity tests: loss of growth or viability). ECn is the concentration giving n% inhibition of infection, replication or growth. MIC50, MIC90 and the like: level of inhibition, or share of isolates inhibited.

smiles,strain,mutations,cells,method,conditions,read-out,tested at,result
S=P(N1CC1)(N1CC1)N1CC1,H37Rv,,,resazurin,,MIC bound,,>6.25 µg/mL
NNC(=O)c1ccncc1,Clinical isolate 12850,,,broth dilution,,MIC,,≤0.2 µM
CC1=C(C)C(=O)C(CC2=C(C)C(=O)C(C)=C(C)C2=O)=C(C)C1=O,PZA-R,,,,,MIC,,16 µg/mL
O=C(Oc1cc(Cl)ccc1C(=O)Nc1ccc(C(F)(F)F)cc1)c1cnccn1,multidrug resistant 7357/1998,,,,14 d,MIC,,0.5 µM
CCn1cc(C(=O)O)c(=O)c2cc(F)c(N3CCN(C/C(=N/O)c4ccc(C)cc4)CC3)cc21,H37Rv,,,,,inhibition,6.25 µg/mL,13%
Cc1ccc(-c2noc(C3=CC4(CCN(CC5CCCO5)CC4)c4ccccc43)n2)cn1,TB365,Spiroindene-resistant,,turbidity,,MIC,,15.5 µM
COc1ccc(/C(CN2CCN(c3cc4c(cc3F)c(=O)c(C(=O)O)cn4C3CC3)CC2)=N\O)cc1,H37Rv,,,,,inhibition,6.25 µg/mL,52%
O=C1CC(c2cccc(Br)c2)Oc2ccccc21,,,,,,EC50,,<12.5 µg/mL
NNC(=O)c1ccncc1,9S,,,,,MIC,,0.1 µg/mL
O=C(CN1CCOCC1)N1c2ccccc2Sc2cc3ccccc3cc21,H37Rv,,,BACTEC,,inhibition,12.5 µg/mL,-8%
COc1ccc(/C=C/C(=O)c2c(O)cc(OC)cc2OC)cc1,H37Rv,,,,,EC50,,>12.5 µg/mL
CCn1c(-c2ccc(N=Nc3c(C)[nH]n(CCO)c3=O)cc2)n[nH]c1=S,H37Rv,,,,,inhibition,12.5 µg/mL,0%
C1=C(c2nc(-c3ccccc3)no2)c2ccccc2OC12CCN(CC1CCCO1)CC2,H37Rv,,,resazurin,,MIC,,0.8 µM
CN[C@@H]1[C@@H](O)[C@@H](O[C@@H]2[C@@H](O)[C@H](O[C@H]3O[C@H](CN)CC[C@H]3N)[C@@H](N)C[C@H]2N)OC[C@]1(C)O,H37Ra,,,,,Mean MIC,,7 µg/mL
Cc1ccc(NCCN(C)C)c2c(=O)c3c(O)cccc3sc12,H37Rv,,,BACTEC,,MIC bound,,≤12.5 µg/mL
C[C@H]1COc2c(N3CCN(C)CC3)c(F)cc3c(=O)c(C(=O)O)cn1c23,9R,,,,,MIC,,0.5 µg/mL
CCOC(=O)/C(N=Nc1ccc(C(=O)N/N=C\c2ccc(F)cc2)cc1)=C(\C)O,H37Rv,,,,,EC50,,<12.5 µg/mL
Cc1cccc2nc3n(c(=O)c12)-c1ccccc1C3=O,H37Rv,,,,,MIC,,1 µg/mL
C1=C(c2nc(-c3cccnc3)no2)c2ccccc2C12CCN(CC1CCCO1)CC2,18b+,Drug-resistant,,resazurin,,MIC,,0.78 µM
CO[C@H]1/C=C/O[C@@]2(C)Oc3c(C)c(O)c4c(O)c(c(/C=N/N5CCN(C)CC5)c(O)c4c3C2=O)NC(=O)/C(C)=C\C=C\[C@H](C)[C@H](O)[C@@H](C)[C@@H](O)[C@@H](C)[C@H](OC(C)=O)[C@@H]1C,H37Rv (p-aminosalicylate-resistant),,,,,MIC,,1.25 µg/mL
Brc1ccc2nc(CCC3CCCCC3)[nH]c2c1,H37Rv,4/1 MmpL3 (V285A),,visual reading / absorbance,,MIC90,,19.5 µM
C=CCn1c(-c2ccc(N=Nc3c(C)[nH][nH]c3=O)cc2)n[nH]c1=S,H37Rv,,,,,EC50,,>12.5 µg/mL
O=C(Oc1ccc(Br)cc1C(=O)Nc1ccc(C(F)(F)F)cc1)c1cnccn1,extensively drug resistant Praha 131,,,,21 d,MIC,,0.5 µM
CO[C@H]1/C=C/O[C@@]2(C)Oc3c(C)c(O)c4c(O)c(c(/C=N/N5CCN(C)CC5)c(O)c4c3C2=O)NC(=O)/C(C)=C\C=C\[C@H](C)[C@H](O)[C@@H](C)[C@@H](O)[C@@H](C)[C@H](OC(C)=O)[C@@H]1C,Clinical isolate 10975,Rifampicin- and isoniazid-resistant,,broth dilution,,MIC,,>10 µM
O=C(Oc1ccc(Cl)cc1C(=O)Nc1ccc(Cl)c(Cl)c1)c1cnccn1,multidrug resistant 53/2009,,,,21 d,MIC,,1 µM
CCn1cc(C(=O)O)c(=O)c2cc(F)c(N3CCN(CC(=O)c4ccc(F)cc4)CC3)cc21,H37Rv,,VERO,,,EC50,,<6.25 µg/mL
NNC(=O)c1ccncc1,H37Rv,,,,,Mean MIC,,0.031 µg/mL
O=[N+]([O-])/C=C/c1cc2c(ccc3ccccc32)[nH]1,H37Rv,,,resazurin,,MIC bound,,<6.25 µg/mL
NC[C@H]1O[C@H](O[C@H]2[C@H](O)[C@@H](O[C@H]3O[C@H](CO)[C@@H](O)[C@H](N)[C@H]3O)[C@H](N)C[C@@H]2N)[C@H](O)[C@@H](O)[C@@H]1O,H37Rv,,,,,Median MIC,,1.25 µg/mL
CC(=O)Nc1oc(C)nc1C#N,H37Rv,,,BACTEC,,MIC bound,,>12.5 µg/mL
O=C(/C=C/c1ccccc1)c1cc(-c2ccccc2)ccc1O,,,,,,EC50,,<12.5 µg/mL
CCOC(=O)/C(N=Nc1ccc(-c2n[nH]c(=S)o2)cc1)=C(\C)O,H37Rv,,,,,MIC,,>12.5 µg/mL
CCCCS(=O)(=O)Nc1ccc2[nH]c(C(=O)O)c(C)c2c1,H37Rv,,,resazurin,,MIC90,,>100 µM
CC/C(=C(/CC)c1ccc(OCC(=O)N/N=C2/C=C3CCC4C(CCC5(C)C(O)CCC45)C3(C)CC2)cc1)c1ccc(OCC(=O)N/N=C2/C=C3CCC4C(CCC5(C)C(O)CCC45)C3(C)CC2)cc1,H37Rv,,,BACTEC,,MIC bound,,>12.5 µg/mL
O=C(Oc1cc(Cl)ccc1C(=O)Nc1ccc(Cl)c(Cl)c1)c1cnccn1,H37Rv 331/88,,,,21 d,MIC,,2 µM
CO/C(C)=C1/NC(=O)[C@H]([C@@H](C)O)NC(=O)c2csc(n2)-c2cc(O)c(-c3nc(C(=O)NCCCN4CCOCC4)cs3)nc2-c2csc(n2)[C@@H]2COC(=O)c3c4c5c(cccc5n3O)COC(=O)[C@@H](O[C@H]3C[C@](C)(O)[C@H](N(C)C)[C@H](C)O3)[C@@H](OC4)[C@H](NC(=O)c3csc1n3)c1nc(cs1)C(=O)N2,Clinical isolate 30425,,,broth dilution,,MIC,,≤2.5 µM
CCCCS(=O)(=O)Nc1ccc2[nH]c(C(=O)NC(C)CC)c(C)c2c1,H37Rv,,,resazurin,,MIC90,,3.1 µM
CC[C@@H](CO)NCCN[C@@H](CC)CO,H37Rv,,,visual reading / absorbance,,MIC90,,7.7 µM
CCCCCCCCc1ccc2c(c1)C(=O)c1nc3ccncc3c(=O)n1-2,TN1037RFLP:H (DRUG sensitive),,,,,MIC,,≤0.015 µg/mL
NNC(=O)c1ccncc1,H37Rv,EJMCh6C MmpL3  (G253E),,visual reading / absorbance,,MIC90,,0.07 µM
CCCCS(=O)(=O)Nc1ccc2[nH]c(C#N)c(C)c2c1,DRM167 16x6,I122S DG167-resistant,,resazurin,,MIC90,,>100 µM
O=S1(=O)CC(N2CCCCC2)C2=C(O1)c1ccccc1N(c1ccccc1)C2,H37Rv,,,BACTEC,,inhibition,12.5 µg/mL,-9%
CO[C@H]1/C=C/O[C@@]2(C)Oc3c(C)c(O)c4c(O)c(c(/C=N/N5CCN(C/C=C/c6ccccc6)CC5)c(O)c4c3C2=O)NC(=O)/C(C)=C\C=C\[C@H](C)[C@H](O)[C@@H](C)[C@@H](O)[C@@H](C)[C@H](OC(C)=O)[C@@H]1C,2218 (MDR),,,,,MIC,,0.5 µg/mL
O=C1c2cc(F)ccc2-n2c1nc1c(OCc3ccccc3)cccc1c2=O,H37Rv,,,,,MIC,,4 µg/mL
CC1(c2cccs2)C(=O)N(Cl)C(=O)N1Cl,H37Rv,,,BACTEC,,inhibition,12.5 µg/mL,-1%
COC(=O)C(C/C=C/c1ccc2c(c1)C(=O)c1nc3cc(Cl)cc(Cl)c3c(=O)n1-2)NC(C)=O,H37Rv,,,,,MIC,,>8 µg/mL
O=C1CC(c2ccc(Br)cc2)Oc2ccccc21,H37Rv,,,,,EC50,,>12.5 µg/mL
CCCn1c(C)nc2c1C(=O)c1ccccc1C2=O,H37Rv,,,resazurin,,MIC bound,,>6.25 µg/mL
CC[C@@H](CO)NCCN[C@@H](CC)CO,ATCC 2794,Drug-resistant,,resazurin,,MIC,,1.2 µM
Cc1ccc(C(=O)CN2CCN(c3cc4c(cc3F)c(=O)c(C(=O)O)cn4C3CC3)CC2)cc1,H37Rv,,VERO,,,MIC,,1.56 µg/mL
C[C@@H](O)[C@H](N)C(=O)N[C@@H](CCCCN)C(=O)N1CCC[C@H]1C(=O)N[C@@H](CCCN=C(N)N)C(=O)O,H37Rv,,,resazurin,,MIC bound,,>6.25 µg/mL
CCCCCCCCc1ccc2c(c1)C(=O)c1nc3cc(N4CCN(C)CC4)ccc3c(=O)n1-2,H37Rv,,,,,MIC,,0.13 µg/mL
CN(C)CCCNC(=S)S,H37Rv,,,BACTEC,,MIC bound,,>12.5 µg/mL
CCCCS(=O)(=O)Nc1ccc2[nH]c(CNS(C)(=O)=O)c(C)c2c1,H37Rv,,,resazurin,,MIC90,,>100 µM
Cc1cc(=O)n2c(nc3cc(C)c(C)cc32)s1,H37Rv,,,resazurin,,inhibition,6.25 µg/mL,55%
NNC(=O)c1ccncc1,H37Rv 331/88,,,,21 d,MIC,,0.5–1 µM
O=C1C[C@@H](c2ccc(O)cc2)Oc2cc(O)c(-c3c(O)cc4c(c3O)C(=O)C[C@@H](c3ccc(O)cc3)O4)c(O)c21,H37Rv,,,,,inhibition,12.5 µg/mL,0%
CNC(=O)[C@@H](C)[C@H]1C(=O)\C(=C(O)/C=C/C(C)=C/[C@@H](C)[C@@H]2O[C@]3(C)O[C@@H](C=C[C@]34CO4)[C@@H]2C)C(=O)N1[C@@H]1CC[C@H](O)[C@H](C)O1,H37Rv,,,BACTEC,,MIC,,>4 µg/mL
O=C1c2cc(I)ccc2-n2c1nc1ncccc1c2=O,TN1195RFLF:N2 (MDR),,,,,MIC,,0.06 µg/mL
COc1ccc2nc(N/N=C(\C)c3ccccn3)cc(C)c2c1,H37Rv,,,BACTEC,,inhibition,12.5 µg/mL,95%
CN[C@@H]1[C@H](O[C@H]2[C@H](O[C@H]3[C@H](O)[C@@H](O)[C@H](N=C(N)N)[C@@H](O)[C@@H]3N=C(N)N)O[C@@H](C)[C@]2(O)C=O)O[C@@H](CO)[C@H](O)[C@H]1O,H37Ra,,,,,Mean MIC,,0.56 µg/mL
COc1cccc2c1[n+]([O-])c1cccc(O)c1[n+]2[O-],INH-r,,,,,MIC,,0.8 µg/mL
CCCCS(=O)(=O)Nc1ccc2[nH]c(C(=O)OCC)c(C)c2c1,DRM167 32x2,P206T DG167-resistant,,resazurin,,MIC90,,>100 µM
O=C(Oc1ccc(Cl)cc1C(=O)Nc1cccc(C(F)(F)F)c1)c1cnccn1,multidrug resistant 7357/1998,,,,14 d,MIC,,0.5 µM
O=C1C2=C(OCCO2)C(=O)C2=C1OCO2,H37Rv,,,BACTEC,,MIC bound,,>12.5 µg/mL
COc1ccc(-c2noc(C3=CC4(CCN(CC5CCCO5)CC4)c4ccccc43)n2)cc1,ATCC 2794,Drug-resistant,,resazurin,,MIC,,0.39 µM
Cc1ccc(S(=O)(=O)NNC(=O)c2nc3ccccc3c(=O)[nH]2)cc1,H37Rv,,,BACTEC,,inhibition,12.5 µg/mL,12%
NNC(=O)c1ccncc1,TLM-resistant,,,,,MIC,,0.1 µg/mL
CC1(C)COC(c2ccc3c(c2)C(=O)c2nc4ccncc4c(=O)n2-3)OC1,H37Rv,,,,,MIC,,0.06 µg/mL
O=C1CC(c2ccccc2Br)Oc2ccccc21,,,,,,inhibition,12.5 µg/mL,23%
CC1COc2c(N3CCN(C)CC3)c(F)cc3c(=O)c(C(=O)O)cn1c23,900216,,,,,MIC,,0.5 µg/mL
COc1ccc2c3c1OC1C4(CCC5C(C2)N(CC2CC2)CCC351)OCCO4,H37Rv,,,BACTEC,,MIC bound,,>12.5 µg/mL
Cc1[nH]n(-c2ccccc2)c(=O)c1N=Nc1ccc(C(=O)N/N=C/c2ccc(F)cc2)cc1,H37Rv,,,,,MIC,,>12.5 µg/mL
C=C(NC(=O)c1csc(-c2nc3c(cc2O)-c2nc(cs2)C(=O)N[C@@H]([C@@H](C)O)C(=O)N/C(=C(\C)OC)c2nc(cs2)C(=O)N[C@@H]2c4nc(cs4)C(=O)N[C@@H](COC(=O)c4c5c6c(cccc6n4O)COC(=O)[C@@H](O[C@H]4C[C@]6(C)OCN(C)[C@@H]6[C@H](C)O4)[C@H]2OC5)c2nc-3cs2)n1)C(N)=O,H37Rv,,,broth dilution,,MIC,,≤10 µM
Nc1cc2c(cc1Cl)[nH]c(=O)c1cc(Cl)ccc12,H37Rv,,,BACTEC,,inhibition,12.5 µg/mL,17%
CCC(O)CN1CCC2(C=C(c3nc(-c4ccc(OC)cc4)no3)c3ccccc32)CC1,H37Rv,,,resazurin,,MIC,,0.4 µM